Test system: PA01 biofilms formed in the presence of neutrophils
Test: Crystal violet assay: 10 minute exposure of 24 or 48 hour neutrophil-induced PA01 biofilms to poly(amino acid) and/or DNase
Conditions: 10 minutes; DNase 8.25 ug/ml, (Asp)260 5 μM

B1: DNase: Pulmozyme (DNase) (Genentech) at 1 mg/mL in saline (protein, UniProt P24855 23-282, looked up)
Deoxyribonuclease-1: LKIAAFNIQTFGETKMSNATLVSYIVQILSRYDIALVQEVRDSHLTAVGKLLDNLNQDAPDTYHYVVSEPLGRNSYKERYLFVYRPDQVSAVDSYYYDDGCEPCGNDTFNREPAIVRFFSRFTEVREFAIVPLHAAPGDAVAEIDALYDVYLDVQEKWGLEDVMLMGDFNAGCSYVRPSQWSSIRLWTSPTFQWLIPDSADTTATPTHCAYDRIVVAGMLLRGAVVPDSALPFNFQAAYGLSDQLAQAISDHYPVEVMLK
- decrease in biofilm density, 48 hour biofilm, lower DNase: 16%
